Test results as given in article PMC6151865, “Targeting protein biotinylation enhances tuberculosis chemotherapy” (Science Translational Medicine, 2018).

Tested on: Mtb
Assay: Viability of Mtb in standard liquid culture (CFU)
Type: cell-based, Mycobacterium tuberculosis
Conditions: after 10 days of drug exposure

NNC(=O)c1ccncc1 [isoniazid]
emergence of resistant mutants in liquid culture: mutants resistant to isoniazid appeared
